From article PMC9673142, “1,3-Diarylpyrazolyl-acylsulfonamides Target HadAB/BC Complex in Mycobacterium tuberculosis” (ACS Infectious Diseases, 2022) come the findings set out here.

Values after ≈ are worked out from the molar mass of the structure shown.

Experiment [1] has as its system compound 1-resistant Mtb mutants (SRM59, Rv0637/hadC:K157R). The class given is cell-based, Mycobacterium tuberculosis.
A further experiment relates to Mtb/pNIP40b-hadABC. Description: microbe, parasite or virus in culture. The class given is cell-based. Conditions: Mycobacterium tuberculosis, read-out: MIC Mtb/pNIP40b-hadABC.

Consider `CS(=O)(=O)NC(=O)CCc1cn(-c2ccc(Br)cc2)nc1-c1ccncc1` [Compound 1], for which, in experiment [1], the “MIC against resistant colonies (seven out of 10 selected colonies)” value was in the range of 50 to 100 µM.

On to `CS(=O)(=O)NC(=O)NCc1cc(-c2ccc(Br)cc2)oc1-c1ccncc1` [Compound 14], for which the MIC in the experiment with Mtb/pNIP40b-hadABC was found to be 15 µM (≈ 6.75 µg/mL).
